Assay results reported in patent US20070249637A1, “Inhibitors Of Hepatitis C Virus Protease, And Compositions And Treatments Using The Same” (priority 2004, published 2007).

System: HCV dual reporter subgenomic replicon (B6b cell line)
Test: HCV dual reporter subgenomic replicon assay, Renilla luciferase (antiviral activity)
Format: cell-based, Hepatitis C virus
Details: therapeutic index = CC50 divided by EC50
Description: The compounds described herein were tested for antiviral activity utilizing a dual-reporter replicon assay as described in U.S. patent application Ser. No. 10/818,075 (the '075 application), filed Apr. 5, 2004. The disclosure of the '075 application is incorporated herein.
Cell-based antiviral activity was evaluated in the previously described HCV dual reporter subgenomic replicon system (the '075 application). With this system, the effects of a compound on both HCV replication and cell viability can be simultaneously determined by measuring the intracellular levels of two separate reporter proteins. The dicistronic selectable replicon contains the Renilla luciferase gene such that Renilla luciferase activity within stably-transfected cells serves as a marker of HCV replication. The firefly luciferase gene is stably integrated into and expressed by the Huh-7 host cells. Since firefly luciferase activity is dependent upon cellular transcription and translation, firefly luciferase activity serves as an indicator of cell viability.
The dual reporter selectable replicon cell line (B6b) was maintained in DMEM supplemented with 10% FBS, L-glutamine, non-essential amino acids, penicillin, streptomycin, and selection agents (200 ug/ml G418 and 6 ug/ml blastocidin). On the first day of the experiment, cells were trypsinized, washed, and diluted in medium lacking the selection agents. Cells were transferred to 96-well, black-walled, clear bottom plates at a density of 2×10^4 cells in 150 ul of medium per well. Cells were allowed to settle for 60 to 90 minutes while compounds were being prepared. Each compound was initially diluted to a 4× working stock (2.56% DMSO in tissue culture medium) that was then serially diluted nine times in half log increments in medium with 2.56% DMSO. Fifty microliters of each dilution were then added in triplicate to the plated cells in order to obtain final IX compound concentrations with 0.64% DMSO. Typical testing concentrations ranged from 320 uM to 10 nM. Control wells containing 0.64% DMSO without compound were also included on each plate.
After 3 days of incubation under humidity at 37° C. with 5% CO2, plates were microscopically examined for compound precipitation and cell death. Tissue culture medium was then aspirated and cells were lysed with 20 ul of 1× Passive Lysis Buffer (Promega, Madison, Wis.). Reporter activity was measured using a MicroBeta Jet 1450 (Perkin Elmer, Boston, Mass.) following sequential 50 ul additions of firefly and Renilla luciferase substrates as described in the manufacturers protocol (Promega). Luciferase activities were expressed as a percentage of the signals observed in the compound-free control wells. The amount of compound required to reduce Renilla luciferase expression by 50% is defined as the 50% effective concentration, or EC50. The amount of compound that reduces firefly luciferase expression by 50% is defined as the 50% cytotoxic concentration, or CC50. A therapeutic index (TI) is calculated by dividing the CC50 by the EC50.

## O=C(N[C@H]1CCCCC/C=C\[C@@H]2C[C@@]2(C(=O)O)NC(=O)[C@@H]2C[C@@H](Oc3cc(-c4ccccn4)nc4ccsc34)CN2C1=O)OC1CCCC1 [Example 11, (2R,12Z,13aS,14aR,16aS)-6-{[(cyclopentyloxy)carbonyl]amino}-5,16-dioxo-2-[(5-pyridin-2-ylthieno[3,2-b]pyridin-7-yl)oxy]-1,2,3,6,7,8,9,10,11,13a,14,15,16,16a-tetradecahydrocyclopropa[e]pyrrolo[1,2-a][1,4]diazacyclopentadecine-14a(5H)-carboxylic acid]
  Replicon TI: 780

## O=C(N[C@H]1CCCCC/C=C\[C@@H]2C[C@@]2(C(=O)O)NC(=O)[C@@H]2C[C@@H](Oc3cc(-c4ccccn4)nc4ccsc34)CN2C1=O)OC1CCC1 [Example 13, (2R,6S,12Z,13aS,14aR,16aS)-6-{[(Cyclobutyloxy)carbonyl]amino}-5,16-dioxo-2-[(5-pyridin-2-ylthieno[3,2-b]pyridin-7-yl)oxy]-1,2,3,6,7,8,9,10,11,13a,14,15,16,16a-tetradecahydrocyclopropa[e]pyrrolo[1,2-a][1,4]diazacyclopentadecine-14a(5H)-carboxylic acid]
  Replicon TI: 520

## CC(C)(C)OC(=O)N[C@H]1CCCCC/C=C\[C@@H]2C[C@@]2(C(=O)O)NC(=O)[C@@H]2C[C@@H](Oc3cc(-c4ccccn4)nc4ccsc34)CN2C1=O [Example 14, (2R,6S,12Z,13aS,14aR,16aS)-6-[(Tert-butoxycarbonyl)amino]-5,16-dioxo-2-[(5-pyridin-2-ylthieno[3,2-b]pyridin-7-yl)oxy]-1,2,3,6,7,8,9,10,11,13a,14,15,16,16a-tetradecahydrocyclopropa[e]pyrrolo[1,2-a][1,4]diazacyclopentadecine-14a(5H)-carboxylic acid]
  Replicon TI: 150

## O=C(CC1CC1)N[C@H]1CCCCC/C=C\[C@@H]2C[C@@]2(C(=O)O)NC(=O)[C@@H]2C[C@@H](Oc3cc(-c4ccccn4)nc4ccsc34)CN2C1=O [Example 16, (2R,6S,12Z,13aS,14aR,16aS)-6-[(Cyclopropylacetyl)amino]-5,16-dioxo-2-[(5-pyridin-2-ylthieno[3,2-b]pyridin-7-yl)oxy]-1,2,3,6,7,8,9,10,11,13a,14,15,16,16a-tetradecahydrocyclopropa[e]pyrrolo[1,2-a][1,4]diazacyclopentadecine-14a(5H)-carboxylic acid]
  Replicon TI: 1800

## O=C(N[C@H]1CCCCC/C=C\[C@@H]2C[C@@]2(C(=O)O)NC(=O)[C@@H]2C[C@@H](Oc3nc(-c4ccccn4)nc4sccc34)CN2C1=O)OC1CCCC1 [Example 26, (2R,6S,12Z,13aS,14aR,16aS)-6-{[(Cyclopentyloxy)carbonyl]amino}-5,16-dioxo-2-[(2-pyridin-2-ylthieno[2,3-d]pyrimidin-4-yl)oxy]-1,2,3,6,7,8,9,10,11,13a,14,15,16,16a-tetradecahydrocyclopropa[e]pyrrolo[1,2-a][1,4]diazacyclopentadecine-14a(5H)-carboxylic acid]
  Replicon TI: 1200

## O=C(N[C@H]1CCCCC/C=C\[C@@H]2C[C@@]2(C(=O)O)NC(=O)[C@@H]2C[C@@H](Oc3nc(-c4ccccn4)nc4sccc34)CN2C1=O)OC1CCC1 [Example 28, (2R,6S,12Z,13aS,14aR,16aS)-6-{[(cyclobutyloxy)carbonyl]amino}-5,16-dioxo-2-[(2-pyridin-2-ylthieno[2,3-d]pyrimidin-4-yl)oxy]-1,2,3,6,7,8,9,10,11,13a,14,15,16,16a-tetradecahydrocyclopropa[e]pyrrolo[1,2-a][1,4]diazacyclopentadecine-14a(5H)-carboxylic acid]
  Replicon TI: 140

## CC(C)(C)OC(=O)N[C@H]1CCCCC/C=C\[C@@H]2C[C@@]2(C(=O)O)NC(=O)[C@@H]2C[C@@H](Oc3nc(-c4ccccn4)nc4sccc34)CN2C1=O [Example 29, (2R,6S,12Z,13aS,14aR,16aS)-6-[(tert-butoxycarbonyl)amino]-5,16-dioxo-2-[(2-pyridin-2-ylthieno[2,3-d]pyrimidin-4-yl)oxy]-1,2,3,6,7,8,9,10,11,13a,14,15,16,16a-tetradecahydrocyclopropa[e]pyrrolo[1,2-a][1,4]diazacyclopentadecine-14a(5H)-carboxylic acid]
  Replicon TI: 31

## O=C(CC1CC1)N[C@H]1CCCCC/C=C\[C@@H]2C[C@@]2(C(=O)O)NC(=O)[C@@H]2C[C@@H](Oc3nc(-c4ccccn4)nc4sccc34)CN2C1=O [Example 31, (2R,6S,12Z,13aS,14aR,16aS)-6-[(Cyclopropylacetyl)amino]-5,16-dioxo-2-[(2-pyridin-2-ylthieno[2,3-d]pyrimidin-4-yl)oxy]-1,2,3,6,7,8,9,10,11,13a,14,15,16,16a-tetradecahydrocyclopropa[e]pyrrolo[1,2-a][1,4]diazacyclopentadecine-14a(5H)-carboxylic acid]
  Replicon TI: 670

## O=C(N[C@H]1CCCCC/C=C\[C@@H]2C[C@@]2(C(=O)O)NC(=O)[C@@H]2C[C@@H](Oc3nc(-c4ccccn4)nc4ccsc34)CN2C1=O)OC1CCCC1 [Example 41, (2R,6S,12Z,13aS,14aR,16aS)-6-{[(cyclopentyloxy)carbonyl]amino}-5,16-dioxo-2-[(2-pyridin-2-ylthieno[3,2-d]pyrimidin-4-yl)oxy]-1,2,3,6,7,8,9,10,11,13a,14,15,16,16a-tetradecahydrocyclopropa[e]pyrrolo[1,2-a][1,4]diazacyclopentadecine-14a(5H)-carboxylic acid]
  Replicon TI: 2600

## O=C(N[C@H]1CCCCC/C=C\[C@@H]2C[C@@]2(C(=O)O)NC(=O)[C@@H]2C[C@@H](Oc3nc(-c4ccccn4)nc4ccsc34)CN2C1=O)OC1CCC1 [Example 43, (2R,6S,12Z,13aS,14aR,16aS)-6-{[(cyclobutyloxy)carbonyl]amino}-5,16-dioxo-2-[(2-pyridin-2-ylthieno[3,2-d]pyrimidin-4-yl)oxy]-1,2,3,6,7,8,9,10,11,13a,14,15,16,16a-tetradecahydrocyclopropa[e]pyrrolo[1,2-a][1,4]diazacyclopentadecine-14a(5H)-carboxylic acid]
  Replicon TI: >1700

## CC(C)(C)OC(=O)N[C@H]1CCCCC/C=C\[C@@H]2C[C@@]2(C(=O)O)NC(=O)[C@@H]2C[C@@H](Oc3nc(-c4ccccn4)nc4ccsc34)CN2C1=O [Example 44, (2R,6S,12Z,13aS,14aR,16aS)-6-[(Tert-butoxycarbonyl)amino]-5,16-dioxo-2-[(2-pyridin-2-ylthieno[3,2-d]pyrimidin-4-yl)oxy]-1,2,3,6,7,8,9,10,11,13a,14,15,16,16a-tetradecahydrocyclopropa[e]pyrrolo[1,2-a][1,4]diazacyclopentadecine-14a(5H)-carboxylic acid]
  Replicon TI: 1100

## O=C(CC1CC1)N[C@H]1CCCCC/C=C\[C@@H]2C[C@@]2(C(=O)O)NC(=O)[C@@H]2C[C@@H](Oc3nc(-c4ccccn4)nc4ccsc34)CN2C1=O [Example 46, (2R,6S,12Z,13aS,14aR,16aS)-6-[(Cyclopropylacetyl)amino]-5,16-dioxo-2-[(2-pyridin-2-ylthieno[3,2-d]pyrimidin-4-yl)oxy]-1,2,3,6,7,8,9,10,11,13a,14,15,16,16a-tetradecahydrocyclopropa[e]pyrrolo[1,2-a][1,4]diazacyclopentadecine-14a(5H)-carboxylic acid]
  Replicon TI: >3500

## Cc1cc(-c2nc(O[C@@H]3C[C@H]4C(=O)N[C@]5(C(=O)O)C[C@H]5/C=C\CCCCC[C@H](NC(=O)OC5CCCC5)C(=O)N4C3)c3sccc3n2)n(C)n1 [Example 58, (2R,6S,12Z,13aS,14aR,16aS)-6-{[(Cyclopentyloxy)carbonyl]amino}-2-{[2-(1,3-dimethyl-1H-pyrazol-5-yl)thieno[3,2-d]pyrimidin-4-yl]oxy}-5,16-dioxo-1,2,3,6,7,8,9,10,11,13a,14,15,16,16a-tetradecahydrocyclopropa[e]pyrrolo[1,2-a][1,4]diazacyclopentadecine-14a(5H)-carboxylic acid]
  Replicon TI: 3500
